Test results taken from US8211662B2, “Nitroreductase enzymatic substrates” (Biomerieux, priority 2007, dated 2012).

Columns and labels:
Experiment in all cases: Nitroreductase detection on Columbia agar, colonies read under UV
MRSA NCTC 11939 = type: cell-based, Staphylococcus aureus; details: 100 mg/l in Columbia agar, 24 h 37° C., UV 360-365 nm; for F: fluorescence (color), MRSA NCTC 11939: Table 3; for Color of the fluorescence, Staphylococcus aureus NCTC 11939: Table 2; for Color of the fluorescence, MRSA NCTC 11939: Table 4
Method: (§1) A mass of 40 mg of each substrate was dissolved in 4 ml of dimethylformamide (DMF). This solution was entirely taken up in 400 ml of Columbia agar autoclaved beforehand and kept molten at 50° C. The final concentration for each substrate was 100 mg/l.
(§2) Each of the media was distributed into Petri dishes 90 mm in diameter, in a proportion of 20 ml per dish.
(§3) 18 microorganism strains derived from collections and belonging to various species of bacteria and of yeasts were inoculated onto these media by semi-quantitative isolation of 10 μl of a suspension at 0.5 McFarland diluted to 1/20. The media were incubated for 24 hours at 37° C., then the colonies formed were examined visually under UV illumination at 360-365 nm.

[1] = system: Listeria monocytogenes NCTC 11994; type: cell-based; details: Table 3; 100 mg/l in Columbia agar, 24 h 37° C., UV 360-365 nm
Method: as §1, §2, §3

[2] = system: Salmonella typhimurium NCTC 74; type: cell-based; details: 100 mg/l in Columbia agar, 24 h 37° C., UV 360-365 nm; for F: fluorescence (color), Salmonella typhimurium NCTC 74: Table 3
Method: as §1, §2, §3

[3] = system: Providencia rettgeri NCTC 7475; type: cell-based; details: 100 mg/l in Columbia agar, 24 h 37° C., UV 360-365 nm; for F: fluorescence (color), Providencia rettgeri NCTC 7475: Table 3; for Color of the fluorescence, Providencia rettgeri NCTC 7475: Table 4
Method: as §1, §2, §3

[4] = system: Burkholderia cepacia 1222; type: cell-based; details: Table 3; 100 mg/l in Columbia agar, 24 h 37° C., UV 360-365 nm
Method: as §1, §2, §3

[5] = system: Citrobacter freundii 46262 (wild); type: cell-based; details: 100 mg/l in Columbia agar, 24 h 37° C., UV 360-365 nm; for F: fluorescence (color), Citrobacter freundii 46262 (wild): Table 3; for Color of the fluorescence, Citrobacter freundii 46262 (wild): Table 4
Method: as §1, §2, §3

[6] = system: Escherichia coli NCTC 10418; type: cell-based; details: 100 mg/l in Columbia agar, 24 h 37° C., UV 360-365 nm; for F: fluorescence (color), Escherichia coli NCTC 10418: Table 3
Method: as §1, §2, §3

[7] = system: Staphylococcus aureus NCTC 6571; type: cell-based; details: 100 mg/l in Columbia agar, 24 h 37° C., UV 360-365 nm; for F: fluorescence (color), Staphylococcus aureus NCTC 6571: Table 3
Method: as §1, §2, §3

[8] = system: Yersinia enterocolitica NCTC 11176; type: cell-based; details: 100 mg/l in Columbia agar, 24 h 37° C., UV 360-365 nm
Method: as §1, §2, §3

[9] = system: Morganella morganii 462403 (wild); type: cell-based; details: 100 mg/l in Columbia agar, 24 h 37° C., UV 360-365 nm; for F: fluorescence (color), Morganella morganii 462403 (wild): Table 3; for Color of the fluorescence, Morganella morganii 462403: Table 2; for Color of the fluorescence, Morganella morganii 462403 (wild): Table 4
Method: as §1, §2, §3

[10] = system: Acinetobacter baumanii ATCC 19606; type: cell-based; details: 100 mg/l in Columbia agar, 24 h 37° C., UV 360-365 nm
Method: as §1, §2, §3

[11] = system: Pseudomonas aeruginosa NCTC 10662; type: cell-based; details: Table 4; 100 mg/l in Columbia agar, 24 h 37° C., UV 360-365 nm
Method: as §1, §2, §3

[12] = system: Enterobacter cloacae NCTC 11936; type: cell-based; details: 100 mg/l in Columbia agar, 24 h 37° C., UV 360-365 nm
Method: as §1, §2, §3

## O=[N+]([O-])c1ccccc1-c1nc2ccccc2o1 [Substrate 1]
MRSA NCTC 11939
  F: fluorescence (color), MRSA NCTC 11939: violet
[1]
  F: fluorescence (color), Listeria monocyto genes NCTC 11994: violet
[2]
  F: fluorescence (color), Salmonella typhimurium NCTC 74: violet
[3]
  F: fluorescence (color), Providencia rettgeri NCTC 7475: violet
[4]
  F: fluorescence (color), Burkholderia cepacia 1222: violet
[5]
  F: fluorescence (color), Citrobacter freundii 46262 (wild): violet
[6]
  F: fluorescence (color), Escherichia coli NCTC 10418: violet
[7]
  F: fluorescence (color), Staphylococcus aureus NCTC 6571: violet
[8]; Table 3
  F: fluorescence (color), Yersinia enterocolitica NCTC 11176: violet
[9]
  F: fluorescence (color), Morganella morganii 462403 (wild): violet

## O=[N+]([O-])c1ccc(F)cc1-c1nc2ccccc2s1 [Substrate 15]
MRSA NCTC 11939
  Color of the fluorescence, Staphylococcus aureus NCTC 11939: Blue
  Color of the fluorescence, MRSA NCTC 11939: turquoise
[10]; Table 2
  Color of the fluorescence, Acinetobacter baumanii ATCC 19606: Blue
[10]; Table 4
  Color of the fluorescence, Acinetobacter baumanii ATCC 19606: turquoise
[2]; Table 2
  Color of the fluorescence, Salmonella typhimurium NCTC 74: Blue
[2]; Table 4
  Color of the fluorescence, Salmonella typhimurium NCTC 74: turquoise
[3]
  Color of the fluorescence, Providencia rettgeri NCTC 7475: turquoise
[11]
  Color of the fluorescence, Pseudomonas aeruginosa NCTC 10662: turquoise
[5]
  Color of the fluorescence, Citrobacter freundii 46262 (wild): turquoise
[6]; Table 2
  Color of the fluorescence, Escherichia coli NCTC 10418: Blue
[6]; Table 4
  Color of the fluorescence, Escherichia coli NCTC 10418: turquoise
[7]; Table 2
  Color of the fluorescence, Staphylococcus aureus NCTC 6571: Blue
[7]; Table 4
  Color of the fluorescence, Staphylococcus aureus NCTC 6571: turquoise
[9]
  Color of the fluorescence, Morganella morganii 462403: Blue
  Color of the fluorescence, Morganella morganii 462403 (wild): turquoise
[12]; Table 2
  Color of the fluorescence, Enterobacter cloacae NCTC 11936: Blue
[12]; Table 4
  Color of the fluorescence, Enterobacter cloacae NCTC 11936: turquoise

## O=[N+]([O-])c1ccc(F)cc1-c1nc2ccccc2o1 [Substrate 7]
MRSA NCTC 11939
  Color of the fluorescence, Staphylococcus aureus NCTC 11939: Blue
[10]; Table 2
  Color of the fluorescence, Acinetobacter baumanii ATCC 19606: Blue
[2]; Table 2
  Color of the fluorescence, Salmonella typhimurium NCTC 74: Blue
[6]; Table 2
  Color of the fluorescence, Escherichia coli NCTC 10418: Blue
[7]; Table 2
  Color of the fluorescence, Staphylococcus aureus NCTC 6571: Blue
[9]
  Color of the fluorescence, Morganella morganii 462403: Blue
[12]; Table 2
  Color of the fluorescence, Enterobacter cloacae NCTC 11936: Blue

## CN1CCN(c2ccc([N+](=O)[O-])c(-c3nc4ccccc4s3)c2)CC1 [Substrate 23]
MRSA NCTC 11939
  Color of the fluorescence, MRSA NCTC 11939: yellow
[2]; Table 4
  Color of the fluorescence, Salmonella typhimurium NCTC 74: yellow
[3]
  Color of the fluorescence, Providencia rettgeri NCTC 7475: yellow
[11]
  Color of the fluorescence, Pseudomonas aeruginosa NCTC 10662: yellow
[5]
  Color of the fluorescence, Citrobacter freundii 46262 (wild): yellow
[7]; Table 4
  Color of the fluorescence, Staphylococcus aureus NCTC 6571: yellow
[9]
  Color of the fluorescence, Morganella morganii 462403 (wild): yellow
[12]; Table 4
  Color of the fluorescence, Enterobacter cloacae NCTC 11936: yellow

## O=[N+]([O-])c1ccccc1-c1nc2cc(Cl)ccc2o1 [Substrate 2]
MRSA NCTC 11939
  Color of the fluorescence, Staphylococcus aureus NCTC 11939: Blue
[10]; Table 2
  Color of the fluorescence, Acinetobacter baumanii ATCC 19606: Blue
[6]; Table 2
  Color of the fluorescence, Escherichia coli NCTC 10418: Blue
[7]; Table 2
  Color of the fluorescence, Staphylococcus aureus NCTC 6571: Blue
[8]; Table 2
  Color of the fluorescence, Yersinia enterocolitica NCTC 11176: Blue
[9]
  Color of the fluorescence, Morganella morganii 462403: Blue
[12]; Table 2
  Color of the fluorescence, Enterobacter cloacae NCTC 11936: Blue

## O=[N+]([O-])c1ccccc1-c1nc2ccccc2n1CCc1ccccc1 [Substrate 12]
[9]
  Color of the fluorescence, Morganella morganii 462403: Blue

## O=[N+]([O-])c1cc2c(cc1-c1nc3ccccc3o1)OCO2 [Substrate 5]
MRSA NCTC 11939
  F: fluorescence (color), MRSA NCTC 11939: violet
[1]
  F: fluorescence (color), Listeria monocyto genes NCTC 11994: violet
[2]
  F: fluorescence (color), Salmonella typhimurium NCTC 74: violet
[3]
  F: fluorescence (color), Providencia rettgeri NCTC 7475: violet
[4]
  F: fluorescence (color), Burkholderia cepacia 1222: violet
[5]
  F: fluorescence (color), Citrobacter freundii 46262 (wild): violet
[6]
  F: fluorescence (color), Escherichia coli NCTC 10418: violet
[7]
  F: fluorescence (color), Staphylococcus aureus NCTC 6571: violet
[9]
  F: fluorescence (color), Morganella morganii 462403 (wild): violet

## COc1cc(-c2nc3ccccc3o2)c([N+](=O)[O-])cc1OC [Substrate 6]
MRSA NCTC 11939
  Color of the fluorescence, Staphylococcus aureus NCTC 11939: Blue
[6]; Table 2
  Color of the fluorescence, Escherichia coli NCTC 10418: Blue
[7]; Table 2
  Color of the fluorescence, Staphylococcus aureus NCTC 6571: Blue
[9]
  Color of the fluorescence, Morganella morganii 462403: Blue
[12]; Table 2
  Color of the fluorescence, Enterobacter cloacae NCTC 11936: Blue
